Data: US8729034B2, “Pharmaceutical composition having virucidal and spermicidal activity” (priority 2007, dated 2014)

Tested on: Female cycling rats
Experiment: Intra uterine application of Ac-B and IUI in rat, fertilization outcome
Assay type: in vivo, Sprague-Dawley rats
Details: 1.75 mg Ac-B intrauterine
Protocol: Female cycling rats weighing 180-200 g were obtained from the institutional Animal House. The duplex nature of the rat uterus with separate cervical canal helped us to organize both control and experimental sets in the same animal with exposure to identical physiological milieu.
On the day of pro-estrous, both horns of the uterus were exposed by mid-ventral incision of the abdomen under light anesthesia following intra peritoneal injection of Ketamin at a concentration of 100 mg/kg body weight, supported by inhalation of anesthetic-ether, during 17.00-17.30 hours of the day. IUI was performed by injecting 50 microliters of sperm suspensions with varied concentration (25-30, 40-50, and 50-55 million sperms/ml) through a 24 G needle fitted onto a tuberculin syringe in the cervical end of the uterine lumen of each horn. The muscle in the injection site was held tightly for a while to prevent leakage through the puncture. Prior to IUI, each rat received a injection of 1.75 mg Ac-B in 50 microliters BWW medium in the left horn and simple BWW medium in the right horn. The opened abdominal muscle and skin layers were properly sutured by suturing silk thread. The outer most skin layers were further fixed by metal clips. The wound was properly cleaned with antiseptic lotions. Each operated animal was housed individually in fresh cage for collection and counting of unfertilized oocytes, two celled embryos, and fragmented bodies. […] The abdomen was opened and each of the fallopian tubes was collected carefully. The content of each tube was flushed out by introducing BWW medium into each tube with the help of a 30 G hypodermic needle in a watch glass. The flushed out lavage was examined under an inverted phase contrast microscope (Leitz, Labovert, ×100) to score the number of recovered fertilized/unfertilized eggs from individual fallopian tube.

Acaciaside-B [Ac-B]
Total (eggs recovered), treated horn (sperm count 25-30 million/ml (N = 3)): 17 | Total (eggs recovered), treated horn (sperm count 40-50 million/ml (N = 4)): 19 | Total (eggs recovered), treated horn (sperm count 50-55 million/ml (N = 4)): 16
